# Sequence variants of PSTVd loop 6 after infection

Source: Wu et al. 2024 (doi:10.1371/journal.ppat.1012142), supplementary data.

The pool varies loop 6 of the PSTVd intermediate strain in the pattern UNNNCGNNNG; wild type is UGACCGCGAG (upper and lower strand joined, each 5' to 3', the first 5 letters being the upper strand, closing pairs included).

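A pool of all variants was put on leaves of three Nicotiana benthamiana plants. Progeny were sequenced from the inoculated region (day 5), the margin of the inoculated leaf (day 10) and systemic leaves (day 12).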

Numbers give reads per thousand; 0 = not seen among the reads, higher = more abundant.
Each value is the mean of three plants.
"Pool" is the share in the plasmid pool used as inoculum, on the same scale.
The inoculated region was read from the minus strand, the other sites from the plus strand.
IR is the inoculated region, LM the leaf margin, Sys the systemic leaves.
Wild type was 20.7 per thousand in the pool and the most common sequence in every sample (inoculated region 195, 198, 203; leaf margin 629, 591, 734; systemic leaves 942, 870, 868).
The authors trace changes outside the varied positions to PCR and sequencing errors or to mutation in the plant; presence does not show that a variant is infectious alone.
With 36,220-57,551 reads a sample, very low values are single reads.

| # | sequence | pool | IR | LM | Sys |
|---|---|---|---|---|---|
| 1 | UUUACGGCAG | 0.261 | 0.659 | 0.0752 | 0 |
| 2 | UGGCCGGGAG | 0.170 | 0.169 | 0.0416 | 0 |
| 3 | UCUGCGCUCG | 0.196 | 0.106 | 0 | 0 |
| 4 | UCGCCGAAAG | 0.0654 | 0.133 | 0.0261 | 0 |
| 5 | UUGUCGGGAG | 0.301 | 0.655 | 0.138 | 0 |
| 6 | UAACCGCUUG | 0.157 | 0.142 | 0.0247 | 0 |
| 7 | UCUUCGAUCG | 0.327 | 0.101 | 0.00773 | 0 |
| 8 | UUCACGAUUG | 0.379 | 0.101 | 0 | 0 |
| 9 | UGUUCGGUCG | 0.366 | 0.0422 | 0.00773 | 0 |
| 10 | UAACCGAGAG | 0.183 | 0.719 | 0.101 | 0 |
| 11 | UAUUCGCCUG | 0.222 | 0.0654 | 0.00920 | 0 |
| 12 | UAUUCGCCGG | 0.235 | 0.0893 | 0.0169 | 0 |
| 13 | UCCGCGCACG | 0.209 | 0.0589 | 0 | 0 |
| 14 | UUCCCGCCCG | 0.222 | 0.108 | 0 | 0 |
| 15 | UCAUCGACAG | 0.118 | 0.109 | 0 | 0 |
| 16 | UUCACGAGAG | 0.366 | 0.108 | 0.00920 | 0 |
| 17 | UCCGCGAUCG | 0.301 | 0.0648 | 0 | 0 |
| 18 | UCUCCGAACG | 0.235 | 0.0536 | 0.0155 | 0 |
| 19 | UAUUCGCUCG | 0.288 | 0.0835 | 0 | 0 |
| 20 | UAUGCGCCGG | 0.170 | 0.0598 | 0.00773 | 0 |
| 21 | UGUGCGAGUG | 0.340 | 0.0831 | 0 | 0 |
| 22 | UUCCCGAGUG | 0.144 | 0.0658 | 0 | 0 |
| 23 | UCCACGAACG | 0.275 | 0.0961 | 0 | 0 |
| 24 | UACCCGUCGG | 0.157 | 0.0898 | 0.00773 | 0 |
| 25 | UCUACGGAGA | 0.0131 | 0 | 0 | 0 |
| 26 | UAGGCGCUGG | 0.301 | 0.125 | 0 | 0 |
| 27 | UGUACGGGUG | 0.196 | 0.605 | 0.124 | 0 |
| 28 | GUAUCGUUAG | 0.0131 | 0 | 0 | 0 |
| 29 | UAUGCGUCGG | 0.157 | 0.0719 | 0.0184 | 0 |
| 30 | UUCGCGAAGG | 0.183 | 0.0659 | 0 | 0 |
| 31 | UGGCCGGUUG | 0.209 | 0.168 | 0.00773 | 0 |
| 32 | UAUACGACGG | 0.314 | 0.0777 | 0.0155 | 0 |
| 33 | UAUACGGCGG | 0.209 | 0.149 | 0 | 0 |
| 34 | UCAGCGUAUG | 0.209 | 0.0654 | 0.147 | 0 |
| 35 | UGUCCGUACG | 0.353 | 0.113 | 0 | 0 |
| 36 | UGAUCGAAAG | 0.170 | 0.636 | 0.0860 | 0 |
| 37 | UUGCCGGGCG | 0.157 | 0.0650 | 0.0247 | 0 |
| 38 | UGUCCGCAUG | 0.131 | 0.726 | 0.0184 | 0.0400 |
| 39 | UGAGCGAUCG | 0.314 | 0.101 | 0 | 0 |
| 40 | UUUCCGGCAG | 0.261 | 0.125 | 0.00773 | 0 |
| 41 | UCAGCGGCUG | 0.170 | 0.113 | 0 | 0 |
| 42 | UCGCCGCCCG | 0.248 | 0.107 | 0 | 0 |
| 43 | UAGUCGUAUG | 0.301 | 0.0951 | 0.0736 | 0 |
| 44 | UUUCCGAGCG | 0.183 | 0.0722 | 0.0324 | 0 |
| 45 | UCGGCGUCAG | 0.301 | 0.0952 | 0.00773 | 0.0137 |
| 46 | UAACCGUCAG | 0.222 | 0.636 | 0.120 | 0.0474 |
| 47 | UUCGCGAUUG | 0.353 | 0.101 | 0 | 0 |
| 48 | UUAUCGUCAG | 0.353 | 0.107 | 0.00920 | 0 |
| 49 | UGCCCGAUAG | 0.183 | 0.107 | 0.0935 | 0 |
| 50 | UACCCGAUAG | 0.261 | 0.0947 | 0.289 | 0 |
| 51 | UAAGCGUAAG | 0.105 | 0.661 | 0.0952 | 0.0263 |
| 52 | UUCGCGGUAG | 0.235 | 0.0659 | 0.00920 | 0 |
| 53 | UACGCGUUUG | 0.301 | 0.0766 | 0 | 0 |
| 54 | UGGGCGUGGG | 0.157 | 0.0965 | 0 | 0 |

6 of these entries, quoted again:

For UUCCCGCCCG (pool 0.222) the result was IR 0.108; LM 0; Sys 0.
For UGGGCGUGGG (pool 0.157) the result was IR 0.0965; LM 0; Sys 0.
For UACGCGUUUG (pool 0.301) the result was IR 0.0766; LM 0; Sys 0.
For UCAGCGUAUG (pool 0.209) the result was IR 0.0654; LM 0.147; Sys 0.
For UUUCCGAGCG (pool 0.183) the result was IR 0.0722; LM 0.0324; Sys 0.
For UUCGCGAAGG (pool 0.183) the result was IR 0.0659; LM 0; Sys 0.